Record: PubChem BioAssay AID1224833 (University of Georgia, 2016)
In all, the deposit lists about 12,000 reagents; this is an unselected part. About 5,600 of them (46%) count as active. 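Active calls cover z-scores past 1 in both directions, so they include lowered as well as raised rotavirus replication.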

Screen: 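Human genes whose knock-down alters rotavirus replication in monkey cells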 (primary screen)
System: monkey MA104 kidney cells
Reagents: siRNA pool against human genes, 50 nM
Time to read-out: 48 h knock-down before infection; read 24 h after infection
Treatment: infection with rotavirus strain RV3 two days after transfection; infectious dose for this stage not given
Detection: 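z-score of rotavirus antigen signal per well, from a fluorescent immunoassay, relative to non-targeting control wells on the same plate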
Reading the numbers: z-score vs non-targeting control: higher = more rotavirus replication than with non-targeting control
Rule for the call: In these data the active calls have z-score vs non-targeting control at about -1 or lower, or at about 1 or higher
Calls: active = z-score beyond 1 either way; inactive = z-score within 1 of zero

Depletion of FAM3D (GeneID 131177) came out at: z-score vs non-targeting control -2.5; active. Silencing of MPP7 (GeneID 143098) gave: z-score vs non-targeting control 2.89; active. For BEX4 (GeneID 56271), the values are z-score vs non-targeting control 2.02; active. With knock-down of ZNF84 (GeneID 7637), the record shows z-score vs non-targeting control -0.654; inactive. After knock-down of UPK1A (GeneID 11045), the record shows z-score vs non-targeting control -1.87; active. For CRISPLD2 (GeneID 83716), the values are z-score vs non-targeting control -0.563; inactive.

Knock-down of FMO3 (GeneID 2328) gave: z-score vs non-targeting control -0.478; inactive. For ANXA2R (GeneID 389289) the deposit lists z-score vs non-targeting control -1.13; active. Knock-down of TFCP2 (GeneID 7024) came out at: z-score vs non-targeting control 2.54; active. For ZNF275 (GeneID 10838), the values are z-score vs non-targeting control -2.11; active. Knock-down of SIX6 (GeneID 4990) came out at: z-score vs non-targeting control -0.648; inactive. Against AQR (GeneID 9716), the entry reads z-score vs non-targeting control -1; active.

With knock-down of KIDINS220 (GeneID 57498) the results were z-score vs non-targeting control -1.85; active. Silencing of RAB3A (GeneID 5864) gave: z-score vs non-targeting control -2.04; active. Against AP5Z1 (GeneID 9907) the deposit lists z-score vs non-targeting control 0.446; inactive. Against OR4S1 (GeneID 256148), the entry reads z-score vs non-targeting control 0.01; inactive. Depletion of SNCG (GeneID 6623) came out at: z-score vs non-targeting control -1.42; active. Silencing of CCL16 (GeneID 6360) came out at: z-score vs non-targeting control -2.73; active.

KDM3A (GeneID 55818) showed z-score vs non-targeting control -2.06; active. Against LBX2 (GeneID 85474), the values are z-score vs non-targeting control -4.72; active. For LIPF (GeneID 8513) the deposit lists z-score vs non-targeting control -1.4; active. With knock-down of LY6G6D (GeneID 58530), the record shows z-score vs non-targeting control -0.0703; inactive. Against TIPRL (GeneID 261726), the values are z-score vs non-targeting control -0.86; inactive. Against VEGFA (GeneID 7422), the values are z-score vs non-targeting control 0.504; inactive.

With knock-down of NUP54 (GeneID 53371), the record shows z-score vs non-targeting control -0.818; inactive. RPH3A (GeneID 22895) showed z-score vs non-targeting control -0.8; inactive. Against NCOA7 (GeneID 135112), the values are z-score vs non-targeting control 1.01; active. For GALNT10 (GeneID 55568) the deposit lists z-score vs non-targeting control -1.41; active. TMEM126B (GeneID 55863) showed z-score vs non-targeting control 0.185; inactive. After knock-down of SLC6A7 (GeneID 6534) the results were z-score vs non-targeting control -0.575; inactive.

After knock-down of TUBA1B (GeneID 10376), the record shows z-score vs non-targeting control -1.91; active. Against ARL17A (GeneID 51326), the values are z-score vs non-targeting control -1.15; active.
